Where two headings read alike, the source gives them in different places.
Assays:
soluble CD28 (sCD28) = biological target: T1, soluble CD28 (sCD28) (Homo sapiens, UniProt P10747); format: binding
T1 construct: comprise the extracellular 37-162, 19-152, 21-141, 24-167 and 20-239 amino acid, respectively, of the mature human ligands domain; purchased R&D Systems 342-CD; host or cells: mouse myeloma NS0 cells

[1] = system: IL2 and IFN-γ mRNA induced by SEB in human PBMC; format: cell-based
[2] = system: IL10 and IL4 induced by SEB in human PBMC; format: cell-based
[3] = system: IL2 and IFN-γ mRNA in human PBMC; format: cell-based

B1: sB7-2: soluble recombinant B7-2 extracellular domain fused to His6-tagged Fc region of human IgG (R&D Systems 141-B2) (protein)
chain: LSGAAPLKIQAYFNETADLPCQFANSQNQSLSELVVFWQDQENLVLNEVYLGKEKFDSVHSKYMGRTSFDSDSWTLRLHNLQIKDKGLYQCIIHHKKPTGMIRIHQMNSELSVLANFSQPEIVPISNITENVYINLTCSSIHGYPEPKKMSVLLRTKNSTIEYDGVMQKSQDNVTELYDVSISLSVSFPDVTSNMTIFCILETDKTRLLSSPFSIELEDP
modifications: left off: a dimerising Fc or GST; small tags and cut ends
Kd (soluble CD28 (sCD28); read-out: KD (Kd) for binding to immobilized sCD28): 19 nM | Kd (soluble CD28 (sCD28); read-out: Kd for binding of sB7-2 to immobilized sCD28): 19 nM | antagonism of SEB-mediated induction of IL2 and IFN-γ mRNA [1]: strongly inhibited | effect on SEB-mediated induction of IL10 / IL4 (Th2 response) [2]: inhibited neither by sCD28 nor by sB7-2 | induction of Th1 cytokine mRNA by the substance alone (agonist activity) [3]: vigorous induction
